Results of unrelated studies side by side (data: NIAID ChemDB).

Common to all: target-level tests; organism: Hepatitis C virus; target: NS5B polymerase; measure: IC50

ICn: concentration for n% inhibition. Neighbouring rows are from separate reports.

SMILES	value
C[C@@]1(O)[C@H](O)[C@@H](CO)O[C@H]1n1ccc2c(N)nc(N)nc21	<100 µM
O=C1/C(=C\c2cc(F)ccc2F)SC(=S)N1NS(=O)(=O)c1ccccc1	≤30 µM
C/C=C/C/C=C/CCC(=O)[C@H]1O[C@H]1C(N)=O	500 µM
O=C1/C(=C/c2ccc(Cl)c(Cl)c2)SC(=S)N1S(=O)(=O)c1ccc(Cl)cc1	≤30 µM
NCc1ccc(Nc2ccc(C(F)(F)F)cc2NC(=O)c2cc(Cl)c(Cl)cc2C(=O)O)cc1	1.4 µM
C[C@@]1(O)[C@H](O)[C@@H](CO)O[C@H]1n1cnc2c(N)ncnc21	1.9 µM
N#Cc1c(Cl)cc(Cl)cc1COc1cccc(/C(O)=C/C(=O)C(=O)O)c1	0.05 µM
O=C1/C(=C\c2cc(F)c(F)cc2F)SC(=S)N1NCc1ccccc1	≤30 µM
O=C(O)C(=O)/C=C(\O)c1ccccc1	6 µM
C[C@@]1(O)[C@H](O)[C@@H](CO)O[C@H]1n1cnc2c(N)ncnc21	<100 µM
O=C1/C(=C\c2ccc(Cl)cc2)SC(=S)N1NS(=O)(=O)c1ccccc1	0.54 µM
NN1C(=O)/C(=C\c2ccc(F)cc2)SC1=S	≤30 µM
O=C1c2cc([N+](=O)[O-])ccc2-n2c1nc1ncccc1c2=O	0.03 µM
COC(=O)[C@H](C)NP(=O)(OC[C@H]1O[C@@H](n2ccc3c(=O)[nH]c(N)nc32)[C@](C)(O)[C@@H]1O)Oc1ccccc1	<100 µM
O=C1/C(=C\c2cccc(Cl)c2)SC(=S)N1NS(=O)(=O)c1ccccc1	≤30 µM
O=C(N[C@@H](Cc1c[nH]c2ccc(O)cc12)C(=O)O)c1ccc2c(c1)nc(-c1ccoc1)n2C1CCCC[C@H]1CCc1ccccc1	<1 µM
Cc1cccc(/C=C2/SC(=S)N(NS(=O)(=O)c3ccccc3)C2=O)c1	≤30 µM
CSc1nc(Nc2ccc(N3CCOCC3)cc2)cc(N2CCN(C(=O)OC(C)C)CC2)n1	<0.1 µg/mL
C[C@@]1(O)[C@H](O)[C@@H](CO)O[C@H]1n1ccc2c(=O)[nH]c(N)nc21	<100 µM
COc1cc(/C=C2/SC(=S)N(NS(=O)(=O)c3ccccc3)C2=O)cc(Br)c1OC	≤30 µM
O=C1CC(=O)OC(C#Cc2nccs2)(C2CCCC2)C1	2.1 µM

A second listing of 2 rows from above:

{"SMILES": "C[C@@]1(O)[C@H](O)[C@@H](CO)O[C@H]1n1ccc2c(=O)[nH]c(N)nc21", "value": "<100 µM"}
{"SMILES": "C/C=C/C/C=C/CCC(=O)[C@H]1O[C@H]1C(N)=O", "value": "500 µM"}